Test results: patent publication US20080095778A1 (NEUTEC PHARMA, published 2008)

Target: peptide having the sequence of SEQ ID NO: 2 (conserved Aspergillus species hsp90 epitope) (A. fumigatus and A. niger (conserved in …))
Assay: not described

B1: Mycograb® antibody (scFv)
scFv: HMAEVQLVESGAEVKKPGESLRISCKGSGCIISSYWISWVRQMPGKGLEWMGKIDPGDSYINYSPSFQGHVTISADKSINTAYLQWNSLKASDTAMYYCARGGRDFGDSFDYWGQGTLVTVSSGGGGSGGGGSGGGGSDVVMTQSPSFLSAFVGDRITITCRASSGISRYLAWYQQAPGKAPKLLIYAASTLQTGVPSRFSGSGSGTEFTLTINSLQPEDFATYYCQHLNSYPLTFGGGTKVDIKRAA
notes: also called Mycograb (RTM) antibody
Q: Does B1 bind?
A: binds
